Structures are written as SMILES.

The data set deals with Madin-Darby canine kidney (MDCK) cells. The settings on record: dog.

For the molecule `NC(=O)c1ncn([C@@H]2O[C@H](CO)[C@@H](O)[C@H]2O)n1` [Ribavirin, reference compound], the “Cytotoxicity MCC (minimal cytotoxic concentration)” value stood at 100 µM.

For the origin of these results see paper PMC11450120, “One-pot synthesis, characterization and antiviral properties of new benzenesulfonamide-based spirothiazolidinones” (Molecular Diversity, 2024).
